From patent US10765662B2, “Mono- or di-substituted indole derivatives as dengue viral replication inhibitors” (Janssen Pharmaceuticals, Inc., priority 2015, dated 2020)

How the values were obtained:
Assay type in all cases: cell-based, Dengue virus
[1] = test system: DENV-2 16681 strain labeled with enhanced green fluorescent protein; experiment: DENV-2 antiviral assay (eGFP fluorescence read-out in Vero cells); conditions: SI=CC50/EC50, DENV-2 antiviral assay
Procedure: The antiviral activity of all the compounds of the invention was tested against the DENV-2 16681 strain which was labeled with enhanced green fluorescent protein (eGPF). The culture medium consists of minimal essential medium supplemented with 2% of heat-inactivated fetal calf serum, 0.04% gentamycin (50 mg/mL) and 2 mM of L-glutamine. Vero cells, obtained from ECACC, were suspended in culture medium and 25 μL was added to 384-well plates (2500 cells/well), which already contain the antiviral compounds. Typically, these plates contain a 5-fold serial dilution of 9 dilution steps of the test compound at 200 times the final concentration in 100% DMSO (200 nL). […] Finally, each plate contains wells which are assigned as virus controls (containing cells and virus in the absence of compound), cell controls (containing cells in the absence of virus and compound) and medium controls (containing medium in the absence of cells, virus and compounds). To the wells assigned as medium control, 25 μL of culture medium was added instead of Vero cells. Once the cells were added to the plates, the plates were incubated for 30 minutes at room temperature to allow the cells to distribute evenly within the wells. Next, the plates were incubated in a fully humidified incubator (37° C., 5% CO2) until the next day. Then, DENV-2 strain 16681, labeled with eGFP, was added at a multiplicity of infection (MOI) of 0.5. Therefore, 15 μL of virus suspension was added to all the wells containing test compound and to the wells assigned as virus control. In parallel, 15 μL of culture medium was added to the medium and cell controls. Next, the plates were incubated for 3 days in a fully humidified incubator (37° C., 5% CO2). At the day of the read out, the eGFP fluorescence was measured using an automated fluorescence microscope at 488 nm (blue laser). Using an in-house LIMS system, inhibition dose response curves for each compound were calculated and the half maximal effective concentration (EC50) was determined. Therefore, the percent inhibition (I) for every test concentration is calculated using the following formula: I=100*([…])/(SVC−SCC); ST, SCC and SVC are the amount of eGFP signal in the test compound, cell control and virus control wells, respectively. The EC50 represents the concentration of a compound at which the virus replication is inhibited with 50%, as measured by a 50% reduction of the eGFP fluorescent intensity compared to the virus control. The EC50 is calculated using linear interpolation (Table 1).

DENV-1 strain TC974#666 = experiment: Tetravalent RT-qPCR assay Protocol A, serotype 1; conditions: RT-qPCR serotype 1 TC974#666
Procedure: (§1) The antiviral activity of the compounds of the invention was tested against DENV-1 strain TC974#666 (NCPV), DENV-2 strain 16681, DENV-3 strain H87 (NCPV) and DENV-4 strains H241 (NCPV) and EDEN (SG/06K2270DK1/2005; GenBank accession number QG398256) in a RT-qPCR assay. Therefore, Vero cells were infected with either DENV-1, or -2, or -3, or -4 in the presence or absence of test compounds. At day 3 post-infection, the cells were lysed and cell lysates were used to prepare cDNA of both a viral target (the 3′UTR of DENV; Table 2) and a cellular reference gene (β-actin, Table 2). Subsequently, a duplex real time PCR was performed on a Lightcycler480 instrument. The generated Cp value is inversely proportional to the amount of RNA expression of these targets. Inhibition of DENV replication by a test compound results in a shift of Cp's for the 3′UTR gene. On the other hand, if a test compound is toxic to the cells, a similar effect on β-actin expression will be observed. The comparative ΔΔCp method is used to calculate EC50, which is based on the relative gene expression of the target gene (3′UTR) normalized with the cellular housekeeping gene (β-actin). In addition, CC50 values are determined based on the Cp values acquired for the housekeeping gene β-actin.
(§2) The culture medium consisted of minimal essential medium supplemented with 2% of heat-inactivated fetal calf serum, 0.04% gentamycin (50 mg/mL) and 2 mM of L-glutamine. Vero cells, obtained from ECACC, were suspended in culture medium and 75 μL/well was added in 96-well plates (10000 cells/well), which already contain the antiviral compounds. […] In addition, each plate contains wells which are assigned as virus controls (containing cells and virus in the absence of compound) and cell controls (containing cells in the absence of virus and compound). Once the cells were added in the plates, the plates were incubated in a fully humidified incubator (37° C., 5% CO2) until the next day. Dengue viruses serotype-1, 2, 3 and 4 were diluted in order to obtain a Cp of ˜22-24 in the assay. Therefore, 25 μL of virus suspension, was added to all the wells containing test compound and to the wells assigned as virus control. In parallel, 25 μL of culture medium was added to the cell controls. Next, the plates were incubated for 3 days in a fully humidified incubator (37° C., 5% CO2). After 3 days, the supernatant was removed from the wells and the cells were washed twice with ice-cold PBS (˜100 μL). The cell pellets within the 96-well plates were stored at −80° C. for at least 1 day. Next, RNA was extracted using the Cells-to-CT™ lysis kit, according to the manufacturer's guideline (Life Technologies). The cell lysates can be stored at −80° C. or immediately used in the reverse transcription step.
(§3) In preparation of the reverse transcription step, mix A (table 3A) was prepared and 7.57 μL/well was dispensed in a 96-well plate. After addition of 5 μL of the cell lysates, a five minute denaturation step at 75° C. was performed (table 3B). Afterwards, 7.43 μL of mix B was added (table 3C) and the reverse transcription step was initiated (table 3D) to generate cDNA.
(§4) Finally, a RT-qPCR mix was prepared, mix C (table 4A), and 22.02 μL/well was dispensed in 96-well LightCycler qPCR plates to which 3 μL of cDNA was added and the qPCR was performed according to the conditions in table 4B on a LightCycler 480.
(§5) Using the LightCycler software and an in-house LIMS system, dose response curves for each compound were calculated and the half maximal effective concentration (EC50) and the half maximal cytotoxic concentration (CC50) were determined (Tables 5-8).

DENV-2 strain 16681 = experiment: Tetravalent RT-qPCR assay Protocol A, serotype 2; conditions: RT-qPCR serotype 2 16681
Procedure: as §1, §2, §3, §4, §5

DENV-3 strain H87 = experiment: Tetravalent RT-qPCR assay Protocol A, serotype 3; conditions: RT-qPCR serotype 3 H87
Procedure: as §1, §2, §3, §4, §5

DENV-4 strain H241 = experiment: Tetravalent RT-qPCR assay Protocol A, serotype 4 H241; conditions: RT-qPCR serotype 4 H241
Procedure: as §1, §2, §3, §4, §5

[2] = test system: DENV-4 strain EDEN (SG/06K2270DK1/2005); experiment: Tetravalent RT-qPCR assay Protocol A, serotype 4 EDEN; conditions: RT-qPCR serotype 4 EDEN
Procedure: as §1, §2, §3, §4, §5

| Compound | SI [1] | SI (DENV-1 strain TC974#666) | SI (DENV-2 strain 16681) | SI (DENV-3 strain H87) | SI (DENV-4 strain H241) | SI [2] |
| --- | --- | --- | --- | --- | --- | --- |
| COc1cc(NC(C(=O)c2c[nH]c3cc(F)ccc23)c2ccc(Cl)cc2OCCO)cc(S(C)(=O)=O)c1 (single isomer, unassigned) [Compound 1A, 2-(4-chloro-2-(2-hydroxyethoxy)phenyl)-1-(6-fluoro-1H-indol-3-yl)-2-((3-methoxy-5-(methylsulfonyl)phenyl)amino)ethanone] | >13500 | >2200 | 29700 | >421 | >29 |  |
| COc1cc(NC(C(=O)c2c[nH]c3cc(Cl)ccc23)c2ccc(Cl)cc2OCCO)cc(S(C)(=O)=O)c1 (single isomer, unassigned) [Compound 2A, 1-(6-chloro-1H-indol-3-yl)-2-(4-chloro-2-(2-hydroxyethoxy)phenyl)-2-((3-methoxy-5-(methylsulfonyl)phenyl)amino)ethanone] | >37500 | >1980 | >29700 | >186 | 39 | >2406 |
| COc1cc(NC(C(=O)c2c[nH]c3cc(OC)ccc23)c2ccc(Cl)cc2OCCO)cc(S(C)(=O)=O)c1 (single isomer, unassigned) [Compound 3A, 2-(4-chloro-2-(2-hydroxyethoxy)phenyl)-1-(6-methoxy-1H-indol-3-yl)-2-((3-methoxy-5-(methylsulfonyl)phenyl)amino)ethanone] | 16400 | 1380 | 16800 | 110 | 21 | 2088 |
| COc1cc(NC(C(=O)c2c[nH]c3c(C)c(F)ccc23)c2ccc(Cl)cc2OCCO)cc(S(C)(=O)=O)c1 (single isomer, unassigned) [Compound 4A, 2-(4-chloro-2-(2-hydroxyethoxy)phenyl)-1-(6-fluoro-7-methyl-1H-indol-3-yl)-2-((3-methoxy-5-(methylsulfonyl)phenyl)amino)ethanone] | >23200 | >2160 | 40100 | >173 | 24 | >2455 |
| COc1cc(NC(C(=O)c2c[nH]c3c(C)c(Cl)ccc23)c2ccc(Cl)cc2OCCO)cc(S(C)(=O)=O)c1 (single isomer, unassigned) [Compound 5B, 2-(4-chloro-2-(2-hydroxyethoxy)phenyl)-1-(6-chloro-7-methyl-1H-indol-3-yl)-2-((3-methoxy-5-(methylsulfonyl)phenyl)amino)ethanone] | >43900 | >967 | >52300 | >218 | 33 | >2989 |
| COc1cc(NC(C(=O)c2c[nH]c3cc(F)c(C)cc23)c2ccc(Cl)cc2OCCO)cc(S(C)(=O)=O)c1 (single isomer, unassigned) [Compound 8A, 2-(4-chloro-2-(2-hydroxyethoxy)phenyl)-1-(6-fluoro-5-methyl-1H-indol-3-yl)-2-((3-methoxy-5-(methylsulfonyl)phenyl)amino)ethanone] | 25900 | 17200 | 89000 | 1020 | 93 |  |
| COc1cc(NC(C(=O)c2c[nH]c3ccc(C(F)(F)F)cc23)c2ccc(Cl)cc2OCCO)cc(S(C)(=O)=O)c1 (single isomer, unassigned) [Compound 9B, 2-(4-chloro-2-(2-hydroxyethoxy)phenyl)-2-((3-methoxy-5-(methylsulfonyl)phenyl)amino)-1-(5-(trifluoromethyl)-1H-indol-3-yl)ethanone] | >39700 | >38700 | >49900 | 1970 | >409 |  |
| COc1cc(NC(C(=O)c2c[nH]c3ccc(OC(F)(F)F)cc23)c2ccc(Cl)cc2OCCO)cc(S(C)(=O)=O)c1 (single isomer, unassigned) [Compound 10B, 2-(4-chloro-2-(2-hydroxyethoxy)phenyl)-2-((3-methoxy-5-(methylsulfonyl)phenyl)amino)-1-(5-(trifluoromethoxy)-1H-indol-3-yl)ethanone] | >42700 | >41300 | >62800 | >2220 | >331 |  |
| COc1cc(NC(C(=O)c2c[nH]c3cc(OC)c(OC(F)(F)F)cc23)c2ccc(Cl)cc2OCCO)cc(S(C)(=O)=O)c1 (single isomer, unassigned) [Compound 11B, 2-(4-chloro-2-(2-hydroxyethoxy)phenyl)-2-((3-methoxy-5-(methylsulfonyl)phenyl)amino)-1-(6-methoxy-5-(trifluoromethoxy)-1H-indol-3-yl)ethanone] | >26400 | >26300 | >46200 | >2210 | 202 |  |
| COc1cc(NC(C(=O)c2c[nH]c3c(C)cc(OC(F)(F)F)cc23)c2ccc(Cl)cc2OCCO)cc(S(C)(=O)=O)c1 (single isomer, unassigned) [Compound 12B, 2-(4-chloro-2-(2-hydroxyethoxy)phenyl)-2-((3-methoxy-5-(methylsulfonyl)phenyl)amino)-1-(7-methyl-5-(trifluoromethoxy)-1H-indol-3-yl)ethanone] | >390600 | >26700 | >56600 | 2720 | 514 |  |
